Results published in patent US11707504B1 (dated 2023).

Test system: HCoV-229E
Assay: Plaque reduction test (antiviral assay) in Vero E6 cells
Conditions: for IC50: inhibition of HCoV-229E plaque formation; for Titer Post-Tx: viral titer after treatment

| Structure (SMILES) | IC50 | Titer Post-Tx (peptide conc. 1 μg/ml) | Titer Post-Tx (peptide conc. 10 μg/ml) | Titer Post-Tx (peptide conc. 100 μg/ml) |
| --- | --- | --- | --- | --- |
| CC[C@H](C)[C@H](NC(=O)[C@H](Cc1ccc(O)cc1)NC(=O)[C@H](CO)NC(=O)[C@H](CCC(=O)O)NC(=O)[C@H](CC(N)=O)NC(=O)[C@H](CC(C)C)NC(=O)[C@H](CCCCN)NC(=O)[C@H](CCCCN)NC(=O)[C@@H](NC(=O)[C@@H](NC(=O)[C@H](CCC(=O)O)NC(=O)[C@H](CCC(=O)O)NC(=O)[C@H](CC(C)C)NC(=O)[C@H](CO)NC(=O)[C@H](CCCNC(=N)N)NC(=O)[C@H](CCSC)NC(=O)[C@H](CCC(=O)O)NC(=O)[C@H](Cc1ccc(O)cc1)NC(=O)[C@H](CCC(=O)O)NC(=O)[C@H](CC(C)C)NC(=O)[C@H](CC(=O)O)NC(=O)[C@H](CC(C)C)NC(=O)[C@H](CC(C)C)NC(=O)[C@@H](NC(=O)[C@@H](NC(=O)[C@H](CC(N)=O)NC(=O)[C@@H](NC(=O)[C@H](CCC(N)=O)NC(=O)[C@@H](NC(=O)[C@H](CC(C)C)NC(=O)[C@@H](N)CO)[C@@H](C)O)[C@@H](C)CC)[C@@H](C)O)[C@@H](C)O)C(C)C)C(C)C)C(=O)N[C@@H](CC(=O)O)C(=O)N[C@@H](CC(C)C)C(=O)N[C@@H](CCCCN)C(=O)N[C@@H](CCC(=O)O)C(=O)N[C@@H](CC(C)C)C(=O)O | 6.63 µg/mL (≈ 1.55 µM) | 0.029 × 10^3 PFU/ml | 0.019 × 10^3 PFU/ml | 0.017 × 10^3 PFU/ml |
| CC[C@H](C)[C@H](NC(=O)[C@H](Cc1ccc(O)cc1)NC(=O)[C@H](CO)NC(=O)[C@H](CCC(=O)O)NC(=O)[C@H](CC(N)=O)NC(=O)[C@H](CC(C)C)NC(=O)[C@H](C)NC(=O)[C@H](CCCCN)NC(=O)[C@@H](NC(=O)[C@@H](NC(=O)[C@H](CCC(N)=O)NC(=O)[C@H](CCC(N)=O)NC(=O)[C@H](CC(C)C)NC(=O)[C@H](CO)NC(=O)[C@H](CC(C)C)NC(=O)[C@H](CCSC)NC(=O)[C@H](CCC(=O)O)NC(=O)[C@H](Cc1ccc(O)cc1)NC(=O)[C@@H](NC(=O)[C@H](CC(C)C)NC(=O)[C@H](CC(=O)O)NC(=O)[C@H](CC(C)C)NC(=O)[C@H](CC(C)C)NC(=O)[C@@H](NC(=O)[C@@H](NC(=O)[C@H](CC(N)=O)NC(=O)[C@@H](NC(=O)[C@H](CCC(N)=O)NC(=O)[C@@H](NC(=O)[C@H](CC(C)C)NC(=O)[C@@H](N)CO)[C@@H](C)O)[C@@H](C)CC)[C@@H](C)O)[C@@H](C)O)[C@@H](C)O)C(C)C)C(C)C)C(=O)N[C@@H](CC(=O)O)C(=O)N[C@@H](CC(C)C)C(=O)N[C@@H](CCCCN)C(=O)N[C@@H](CCC(=O)O)C(=O)N[C@@H](CC(C)C)C(=O)O | 8.497 µg/mL (≈ 2.05 µM) | 0.030 × 10^3 PFU/ml | 0.021 × 10^3 PFU/ml | 0.015 × 10^3 PFU/ml |

In brackets after ≈: the same amount, converted by molar mass.
